Pooled drug test results. Numbers come from NIAID ChemDB, via PubChem.

Shared fields: whole-cell or culture tests; organism: Candida glabrata

Lines come from different laboratories, so protocols vary. Two numbers with a dash give a range or band. An empty or dashed field is not shown. A number after MIC or MFC names an inhibition level or a share of isolates. ECn: concentration that inhibits the pathogen or its effect by n%.

smiles | setting | read by | endpoint | strain | result
CC1=CC2C(N)=NC(N)=NC2C=C1c1ccc2c(N)nc(N)nc2c1 |  | broth dilution | MIC | ATCC 2001 | 1 µg/mL
O=[N+]([O-])c1cc(CSc2nnnn2Cc2ccccc2)cc([N+](=O)[O-])c1 | 48 h | broth dilution | EC80 | 20/I | >500 µM
Cc1ccc(C(C)C)c(O)c1 |  | broth dilution / turbidity | EC50 | PYCC 2418 | 0.54 µM
S=C(N/N=C/c1cnc[nH]1)Nc1ccccc1 |  | broth dilution | MIC50 | ATCC 2001 | >1480 µM
CCCCCCCCC[C@@H](O)[C@H](C)N |  |  | MIC | MTCC 3019 | 9.9 µM
O=[N+]([O-])c1cc(CSc2cccc[n+]2[O-])cc([N+](=O)[O-])c1 | 48 h | broth dilution | EC80 | 20/I | >500 µM
C[C@H]1[C@H](O)[C@@H](C)/C=C/C=C/C=C/C=C/C=C/C=C/C=C/[C@H](O[C@@H]2O[C@H](C)[C@@H](O)[C@H](N)[C@@H]2O)C[C@@H]2O[C@](O)(C[C@@H](O)C[C@@H](O)CC[C@H](O)[C@@H](O)C[C@@H](O)CC(=O)O[C@H]1C)C[C@H](O)[C@H]2C(=O)O |  | broth dilution | MIC | Clinical isolates | 0.25 µg/mL
C=CCc1ccc(OC)cc1 |  |  | MIC90 |  | 0.016–0.025 µg/mL
O=[N+]([O-])c1cc(CSc2nnnn2C2CCCCC2)cc([N+](=O)[O-])c1 | 24 h | broth dilution | EC80 | 20/I | >500 µM
C[N+]1=CC2C(=O)c3nccc4ccnc(c34)C2C1 |  |  | MIC80 |  | >64 µg/mL
O=C(O)c1ccccc1 |  |  | EC50 | PYCC 2418 | 0.05 µM
CC[C@@H]1C[C@@]2(CC)O/C(=C\C(=O)OC)[C@@]3(CC)[C@H](CC)[C@]1(C)[C@@]23C | clinical isolate | broth dilution | MIC80 |  | 1.63 µM
O=[N+]([O-])c1cc(CSc2nnnn2-c2ccc(Cl)c(Cl)c2)cc([N+](=O)[O-])c1 | 24 h | broth dilution | EC80 | 20/I | >125 µM
CC[C@@H]([C@H](C)O)n1ncn(-c2ccc(N3CCN(c4ccc(OC[C@@H]5CO[C@@](Cn6cncn6)(c6ccc(F)cc6F)C5)cc4)CC3)cc2)c1=O |  | broth dilution | MIC | Clinical isolates | 0.5 µg/mL
O=C(N/N=C/c1ccc(-n2ccnc2)cc1)c1ccc(Cl)cc1 |  | broth dilution | MIC50 | ATCC 2001 | 769.8 µM
COc1cc(C[C@H](C)[C@H](C)Cc2ccc(O)c(O)c2)ccc1O |  | broth dilution | MIC80 | CCC 115-2000 | 62.5 µg/mL
O=[N+]([O-])c1cc(C[Se]c2nnnn2C2CCCCC2)cc([N+](=O)[O-])c1 | 24 h | broth dilution | EC80 | 20/I | >500 µM
Nc1nc(=O)n([C@H]2CS[C@@H](CO)O2)cc1F |  |  | MIC50 | 77 isolates | 0.125 µg/mL
NC(=S)N/N=C/c1ccc(-n2ccnc2)cc1 |  | broth dilution | MIC50 | 2001 | 510 µM
Clc1ccc(COC(Cn2ccnc2)c2ccc(Cl)cc2Cl)c(Cl)c1 |  | broth dilution | MIC | Clinical isolates | 0.03 µg/mL
C[C@@H](c1ncncc1F)[C@](O)(Cn1cncn1)c1ccc(F)cc1F |  |  | MIC90 | 77 isolates | 1 µg/mL
c1ccc([Se][Se]c2ccccc2)cc1 |  | broth dilution | MFC | ATCC 10231 | >64 µg/mL
O=C(O)c1ccccc1O |  | broth dilution / turbidity | EC50 | PYCC 2418 | 0.2 µM

Repeating the first 2 entries:

smiles	setting	read by	endpoint	strain	result
CC1=CC2C(N)=NC(N)=NC2C=C1c1ccc2c(N)nc(N)nc2c1		broth dilution	MIC	ATCC 2001	1 µg/mL
O=[N+]([O-])c1cc(CSc2nnnn2Cc2ccccc2)cc([N+](=O)[O-])c1	48 h	broth dilution	EC80	20/I	>500 µM